System: HIV-1
Assay: NIH Anti-HIV Drug Testing System (XTT, CEM T4 lymphocytes)

O=[As]c1ccccc1 (centres unmarked)
anti-HIV activity (6 days, long-term toxicity superimposed): did show anti-HIV activity
concentration expected to show a complete blockade of HIV entry (modified protocol: drug and free virion removed after the infection period): 10 µM

Source: patent US6943268B2 (priority 1999, dated 2005)
